Compound potency records, mixed from different reports. Data source: NIAID ChemDB in PubChem.

Shared fields: tests in culture; agent: Staphylococcus aureus; endpoint: MIC

Conditions beyond the fields shown may differ between rows.

CC[C@H]1OC(=O)[C@H](C)C(=O)[C@H](C)[C@@H](O[C@@H]2O[C@H](C)C[C@H](N(C)C)[C@H]2O)[C@@]2(C)C[C@@H](C)C(=NC(C)=O)[C@H](C)[C@@H](OC/C(=N\OCc3ccc(C(N)=O)s3)CO2)[C@]1(C)O ; strain or isolate: 29213 (erythromycin A-susceptible) ; value: 0.25 µg/mL
CCCCCCCCCCCC[N+](C)(C)COC1CCCCCCCCCCC1 ; strain or isolate: ATCC 6538 ; value: 3.36 µM
CC[C@H]1OC(=O)[C@@](C)(F)C(=O)[C@H](C)[C@@H](O[C@@H]2O[C@H](C)C[C@H](N(C)C)[C@H]2O)[C@@]2(C)C[C@@H](C)C(=NC(C)=O)[C@H](C)[C@@H](OC/C(=N\OCC#Cc3cccc(N)n3)CO2)[C@]1(C)O ; strain or isolate: 29213 (erythromycin A-susceptible) ; value: 0.13 µg/mL
O=C1O[C@@H](COc2ccon2)CN1c1ccc(-n2cccc2)cc1 ; strain or isolate: 078 (oxford) ; value: 4 µg/mL
CC[C@H]1OC(=O)[C@@](C)(F)C(=O)[C@H](C)[C@@H](O[C@@H]2O[C@H](C)C[C@H](N(C)C)[C@H]2O)[C@@]2(C)C[C@@H](C)C(=NC(C)=O)[C@H](C)[C@@H](OC/C(=N\OCc3ccc(-n4cccn4)nc3)CO2)[C@]1(C)O ; strain or isolate: 33591 (erythromycin methicillin-resistant) ; value: 64 µg/mL
O=C1O[C@@H](COc2ccon2)CN1c1ccc(N2CCOCC2)c(F)c1 ; strain or isolate: 004 (methicillin quinolone-resistant) ; value: 2 µg/mL
CCCCCCCCCCCC[N+](C)(C)COCCCCC ; strain or isolate: ATCC33592 ; value: 3.43 µM
CC[C@H]1OC(=O)[C@@](C)(F)C(=O)[C@H](C)[C@@H](O[C@@H]2O[C@H](C)C[C@H](N(C)C)[C@H]2O)[C@@]2(C)C[C@@H](C)C(=NC(C)=O)[C@H](C)[C@@H](OC/C(=N\OCc3ccc(C(N)=O)s3)CO2)[C@]1(C)O ; strain or isolate: 27660 (erythromycin A -resistant) ; value: 0.13 µg/mL
CN(C)CC(C)(C)CNc1cc2c(cc1F)c(=O)c(C(=O)O)cn2C1CC1 ; strain or isolate: ATCC 6538P ; value: >100 µg/mL
COC(=O)NC[C@H]1CN(c2ccc3c(c2)-n2cccc2COC3)C(=O)O1 ; strain or isolate: ATCC 29213 (MSSA) ; value: 4 µg/mL
CCN(CC)CCN(CC)c1cc2c(cc1F)c(=O)c(C(=O)O)cn2C1CC1 ; strain or isolate: ATCC 6538P ; value: >100 µg/mL
CC[C@H]1OC(=O)[C@@](C)(F)C(=O)[C@H](C)[C@@H](O[C@@H]2O[C@H](C)C[C@H](N(C)C)[C@H]2O)[C@@]2(C)C[C@@H](C)C(=NC(C)=O)[C@H](C)[C@@H](OC/C(=N\OCc3ccc(N)nc3)CO2)[C@]1(C)O ; strain or isolate: 29213 (erythromycin A-susceptible) ; value: 0.13 µg/mL
CC(C)OC(=S)NC[C@H]1CN(c2ccc3c(c2)-n2cccc2COC3)C(=O)O1 ; strain or isolate: ATCC 49951 (SMITH) ; value: >32 µg/mL
CCCCCCCCCOC[N+](C)(C)CCCCCCCC ; strain or isolate: ATCC33592 ; value: 14.3 µM
CC[C@H]1OC(=O)[C@@](C)(F)C(=O)[C@H](C)[C@@H](O[C@@H]2O[C@H](C)C[C@H](N(C)C)[C@H]2O)[C@@]2(C)C[C@@H](C)C(=NC(C)=O)[C@H](C)[C@@H](OC/C(=N\OCc3ccc(-c4cccc(N)n4)s3)CO2)[C@]1(C)O ; strain or isolate: 33591 (erythromycin methicillin-resistant) ; value: 4 µg/mL
CC(C)CC(=O)NC[C@H]1CN(c2ccc3c(c2)-n2cccc2COC3)C(=O)O1 ; strain or isolate: ATCC 29213 (MSSA) ; value: 32 µg/mL
O=C1O[C@@H](COc2ccon2)CN1c1ccc(N2CCC(O)CC2)c(F)c1 ; strain or isolate: 004 (methicillin quinolone-resistant) ; value: 4 µg/mL
CNC1CCN(c2cc3c(cc2F)c(=O)c(C(=O)O)cn3C2CC2)CC1 ; strain or isolate: ATCC 5278 (methicillin-resistant) ; value: 3.12 µg/mL
O=C1O[C@@H](COc2ccon2)CN1c1ccc(N2CC[C@H](O)C2)c(F)c1 ; strain or isolate: 004 (methicillin quinolone-resistant) ; value: 4 µg/mL
CCCCOCCCNc1cc2c(cc1F)c(=O)c(C(=O)O)cn2C1CC1 ; strain or isolate: ATCC 5278 (methicillin-resistant) ; value: >100 µg/mL
CC(C)C(=S)NC[C@H]1CN(c2ccc3c(c2)-n2cccc2COC3)C(=O)O1 ; strain or isolate: ATCC 49951 (SMITH) ; value: 4 µg/mL
CCCCCCCCCCCC[N+](C)(C)COCCC ; strain or isolate: ATCC33592 ; value: 1.55 µM
N#Cc1ccc(N2CCN(c3ccc(N4C[C@H](CNc5ccon5)OC4=O)cc3F)CC2)nn1 ; strain or isolate: 078 (oxford) ; value: 1 µg/mL
COC(CNc1cc2c(cc1F)c(=O)c(C(=O)O)cn2C1CC1)OC ; strain or isolate: ATCC 5278 (methicillin-resistant) ; value: >100 µg/mL
CCCCCCCC[N+](C)(C)COC1CCCCCCCCCCC1 ; strain or isolate: ATCC33592 ; value: 2.56 µM
O=C(CCl)NC[C@H]1CN(c2ccc3c(c2)-n2cccc2COC3)C(=O)O1 ; strain or isolate: ATCC 49951 (SMITH) ; value: 2 µg/mL
CCN1CCN(C)c2cc3c(=O)c(C(=O)O)cn(C4CC4)c3cc21 ; strain or isolate: ATCC 5278 (methicillin-resistant) ; value: >100 µg/mL
CC[C@H]1OC(=O)[C@@](C)(F)C(=O)[C@H](C)[C@@H](O[C@@H]2O[C@H](C)C[C@H](N(C)C)[C@H]2O)[C@@]2(C)C[C@@H](C)C(=NC(C)=O)[C@H](C)[C@@H](OC/C(=N\OCc3cccc(C(N)=O)c3)CO2)[C@]1(C)O ; strain or isolate: 27660 (erythromycin A -resistant) ; value: 0.13 µg/mL

For reference, 2 entries again:

SMILES	strain or isolate	value
O=C1O[C@@H](COc2ccon2)CN1c1ccc(N2CCOCC2)c(F)c1	004 (methicillin quinolone-resistant)	2 µg/mL
CNC1CCN(c2cc3c(cc2F)c(=O)c(C(=O)O)cn3C2CC2)CC1	ATCC 5278 (methicillin-resistant)	3.12 µg/mL